Source: patent publication US7049295B2, “Compounds and use thereof to modify transport across cell membranes” (Biotransys Limited, priority 1999, dated 2006)

System: HUVECs
Assay: Transcellular transport of horse radish peroxidase (HRP) across a cell monolayer on filter
Format: cell-based, human
Conditions: +5 μM biovector
Protocol: Transport of horse radish peroxidase (HRP) across a cellular membrane was measured using the apparatus shown schematically in FIG. 4, with the addition of biovectors (BVS1 etc). The apparatus comprises upper and lower compartments (1, 2 respectively) separated by a filter 3 on which the cells 4 are grown. HRP and biovectors are added to the medium in the upper compartment 1, and HRP is assayed in the lower compartment 2.
Transcellular transport was determined as above for the HUVECs studies. […]

polysulfonylnaphthylurea [PSNU, reference compound]
Specific resistance Across monolayer: >350 Ohms/cm^−2
